# Values from PubChem BioAssay AID624099 (ICCB-Longwood, 2012).
# Test: 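Knock-downs relieving repression by E2 of an HPV18 LCR luciferase reporter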 (primary screen)
# Cell system: human C33A cervical carcinoma cells (HPV-negative) stably expressing BPV1 E2 and an HPV18 LCR luciferase reporter
# Reagent: siRNA pool against human genes, 40 nM
# Timing: 72 h
# Measurement: 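Per-well luciferase luminescence, z-scored on each plate against the plate mean and SD with control wells left out, then averaged across three replicate plates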
# Reading the numbers: mean z-score and z-score: higher = stronger reporter signal, weaker E2 silencing
# Hit rule: 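Mean z ≥ 2 together with z ≥ 2 in two or more of the three replicates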
# Here is one part, drawn at random, of about 21,000 reagents. 497 of all reagents (2.4%) were called active. 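Higher z means weaker E2 silencing; only reporter increases were scored, and knock-downs that hurt cell survival may mask genuine repressor factors.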 Reagent sequences are not shown.
target,mean z-score,"z-score, replicate A","z-score, replicate B","z-score, replicate C",Call
TAF1L,-1.34,-1.47,-1.24,-1.3,inactive
KRT15,0.19,-0.07,0.38,0.26,inactive
NOC4L,-0.61,-0.44,-0.75,-0.63,inactive
ATF7,0.22,-0.26,0.24,0.67,inactive
DIAPH2,1.67,1.67,1.62,1.71,inactive
KLRA1P,0.74,0.56,0.83,0.82,inactive
CACNG5,-0.82,-0.42,-1.09,-0.97,inactive
LOC388480 (retired record),0.52,0.41,0.64,0.52,inactive
PCGF5,-0.51,-0.57,-0.48,-0.49,inactive
POLE3,-0.34,-0.27,-0.39,-0.36,inactive
BUB1,-0.44,-0.12,-0.83,-0.37,inactive
RAB14,0.85,0.65,0.83,1.05,inactive
CYBC1,-1,-1.28,-1.28,-0.43,inactive
LRRC39,-0.57,-0.4,-0.85,-0.44,inactive
SLC17A1,0.31,0.76,0.1,0.06,inactive
ALDH1A2,-1.14,-1.2,-1.11,-1.1,inactive
ROBO1,0.25,0.2,0.4,0.14,inactive
GATA3,-0.43,0.06,-0.89,-0.47,inactive
TIMCC,0.47,0.74,0.18,0.5,inactive
PCDHB6,-0.34,-0.18,-0.42,-0.41,inactive
SULT1C4,0.45,0.21,0.95,0.2,inactive
GOLGA8CP,-0.31,-0.09,-0.3,-0.54,inactive
TRPV2,0.45,0.54,0.56,0.26,inactive
